Legend:
[1] = biological target: LHN/A1 with an EK cleavage site (DDDDK) inserted into the activation loop
[2] = biological target: wild-type Met BoNT/A1 (Metabiologics A1080116)

B1: Enterokinase, light chain (NEB #P8070) (protein)
chain: IVGGSDSREGAWPWVVALYFDDQQVCGASLVSRDWLVSAAHCVYGRNMEPSKWKAVLGLHMASNLTSPQIETRLIDQIVINRHYNKRRKNNDIAMMHLEMKVNYTDYIQPICLPEENQVFPPGRICSIAGWGALIYQGSTADVLQEADVPLLSNEKCQQQMPEYNITENMVCAGYDAGGVDSCQGDSGGPLMCQENNRWLLAGVTSFGYQCALPNRPGVYARVPRFTEWIQSFLH
Q: How did the “proteolytic cleavage, SDS-PAGE” value [1] turn out when B1 was run?
A: Its value is “cleavage of the modified loop is much less efficient than the wild-type loop”.

B2: Factor Xa (NEB #P8010) (protein)
chain 1: IVGGRDCAEGECPWQALLVNEENEGFCGGTILNEFYVLTAAHCLHQAKRFTVRVGDRNTEQEEGNEMAHEVEMTVKHSRFVKETYDFDIAVLRLKTPIRFRRNVAPACLPEKDWAEATLMTQKTGIVSGFGRTHEKGRLSSTLKMLEVPYVDRSTCKLSSSFTITPNMFCAGYDTQPEDACQGDSGGPHVTRFKDTYFVTGIVSWGEGCARKGKFGVYTKVSNFLKWIDKIMKARAGAAGSRGHSEAPATWTVPPPLPL
chain 2: ANSFLEEVKQGNLERECLEEACSLEEAREVFEDAEQTDEFWSKYKDGDQCEGHPCLNQGHCKDGIGDYTCTCAEGFEGKNCEFSTREICSLDNGGCDQFCREERSEVRCSCAHGYVLGDDSKSCVSTERFPCGKFTQGRS
Q: With B2 as the protein, how does the “proteolytic cleavage, SDS-PAGE” value [2] read?
A: The value was “FXa does not cleave the A1 activation loop”.
